Pooled drug test results. Numbers come from NIAID ChemDB, via PubChem.

Shared fields: growth or infection tests; organism: HIV-1; method: MTT; read-out: EC50

ECn is the concentration giving n% inhibition of infection, replication or growth. Blank or dashed fields: not listed here. Rows are shuffled and stem from different studies.

SMILES,setting,changes,cells,strain or isolate,result
CCc1c(Cc2cc(C)cc(C)c2)n(COCCF)c(=O)[nH]c1=O,-,Y181C,MT-4,Clinical isolates,0.5 µM
COc1ccc(CCNc2nc(NC(=S)Nc3cccc(Cl)c3)nc(Oc3cc(=O)oc4ccccc34)n2)cc1OC,-,-,MT-4,IIIB,>16.78 µg/mL
Cc1cc(/C=C/C#N)cc(C)c1Oc1nc(NC2CCN(Cc3ccc(Br)cc3)CC2)nc2ccsc12,-,NNRTI-resistant (RT L100I),MT-4,IIIB,0.0582 µM
COc1ccc(OC)c(CCNC(=S)Nc2ccccn2)c1,-,-,MT-2,IIIB,0.126 µM
CCc1c(Cc2cc(C)cc(C)c2)n(Cc2ccc(I)cc2)c(=O)[nH]c1=O,-,Y181C,MT-4,Clinical isolates,3 µM
CC(=O)NS(=O)(=O)c1ccc(NC(=S)NCCc2ccccc2F)cc1,-,-,MT-2,IIIB,1.23 µM
COc1c(C(=O)/C=C(/C)Nc2ccc([N+](=O)[O-])cc2)c(O)c(S(=O)(=O)Oc2ccc(F)cc2)c2occc12,-,-,MT-4,IIIB,0.000037 µM
Cc1cc(/C=C/C#N)cc(C)c1Oc1nc(NC2CCN(Cc3ccccc3Cl)CC2)nc2ccsc12,-,NNRTI-resistant (RT F227L V106A),MT-4,IIIB,0.0723 µM
COc1c(-c2cc(C)[nH]n2)c(O)c(S(=O)(=O)Oc2ccc([N+](=O)[O-])cc2)c2occc12,-,-,MT-4,IIIB,0.000023 µM
C=CCOCn1c(Cc2cccc(F)c2)c(CC)c(=O)[nH]c1=O,-,-,MT-4,EFV-resistant (K103R V179D P225H),60 µM
COc1c(C(=O)/C=C(/C)Nc2ccc([N+](=O)[O-])cc2)c(O)c(S(=O)(=O)Oc2ccc([N+](=O)[O-])cc2)c2occc12,-,-,MT-4,IIIB,0.000039 µM
C#CCOCn1c(Cc2ccccc2)c(CO)c(=O)[nH]c1=O,-,K103N + Y181C,MT-4,IIIB,>100 µM
CCCCCCCC(=O)O.CCCCCCCCCCCCCCCCNCC(O)C(O)C(OC1OC(CO)C(O)C(O)C1O)C(O)CO,-,-,CEM + CEM-SS,LAI,16 µM
COc1cc(CCNC(=S)Nc2ccc(Cl)cn2)cc(OC)c1OC,-,-,MT-2,IIIB,88.5 µM
C=CCOCn1c(Cc2ccccc2)c(CF)c(=O)[nH]c1=O,-,Y181C,MT-4,Clinical isolates,>100 µM
Nc1ccn([C@H]2CC[C@@H](CO)O2)c(=O)n1,-,G190A,MT-4,-,0.014 µM
C=CCOCn1c(Cc2cccc(C(F)(F)F)c2)c(CC)c(=O)[nH]c1=O,-,K103N + Y181C,MT-4,A17,19 µM
CCOC(=O)c1c(CSc2ccccc2)n(C)c2cc(Br)c(O)c(CN(C)C)c12,-,-,MT-4,NL4-3,20.32 µM
Cc1cc(C#N)cc(C)c1Oc1nc(NC2CCC(NCc3ccc([N+](=O)[O-])cc3)CC2)nc2ccsc12,-,NNRTI-resistant (RT Y188L),MT-4,IIIB,11.1 µM
CCOCn1c(Cc2cc(C(F)(F)F)cc(C(F)(F)F)c2)c(C(C)C)c(=O)[nH]c1=O,-,-,MT-4,IIIB,0.9 µM
C=C(C)COCn1c(Cc2ccccc2)c(CO)c(=O)[nH]c1=O,-,-,MT-4,-,>20 µM
C/C(=N\Nc1nc(-c2ccc(Br)cc2)cs1)c1ccc(-n2ccnc2)cc1,-,-,MT-4,IIIB,>87.33 µM
COc1ccc(CCNc2nc(NC(=O)Nc3ccccc3)nc(Oc3cc(=O)oc4ccccc34)n2)cc1OC,-,-,MT-4,IIIB,>86.93 µg/mL
Cc1ccc(-c2c(C)c3c(c(C)c2[C@H](OC(C)(C)C)C(=O)O)N(S(C)(=O)=O)Cc2cccc(F)c2-3)cc1,-,T174I,MT-4,-,0.29 µM
Brc1ccc(-c2csc(N/N=C/c3cccnc3)n2)cc1,-,-,MT-4,IIIB,>23.39 µM
COc1c(-c2cc(C)on2)c(O)c(S(=O)(=O)Oc2ccc(F)cc2)c2occc12,-,-,MT-4,IIIB,0.000031 µM
COC(=O)N[C@H](C(=O)N[C@@H](Cc1ccccc1)C[C@H](O)[C@H](Cc1ccc(-c2cccnc2)cc1)NC[C@@H](NC(=O)OC)C(C)(C)C)C(C)(C)C,50% human serum,-,MT-4,pNL4-3,35 nM
C=CCOCn1c(Cc2cc(F)ccc2F)c(CC)c(=O)[nH]c1=O,-,-,MT-4,N119 (Y181C),14 µM
COC(=O)N[C@H](C(=O)N[C@@H](Cc1ccccc1)C[C@H](O)[C@H](Cc1ccc(-c2cccc(CO)c2)cc1)NC[C@@H](NC(=O)OC)C(C)(C)C)C(C)(C)C,-,-,MT-4,pNL4-3,21 nM
COc1ccc(OS(=O)(=O)c2c3occc3c(OC)c3c(=O)cc(C)oc23)cc1,-,-,MT-4,IIIB,0.000048 µM
Cc1cc(/C=C/C#N)cc(C)c1Oc1nc(NC2CCN(Cc3ccc(C#N)cc3)CC2)nc2ccsc12,-,NNRTI-resistant (RT Y181C),MT-4,IIIB,0.031 µM
COC(=O)N[C@H](C(=O)N[C@@H](Cc1ccccc1)C[C@H](O)[C@H](Cc1ccc(-c2ccccc2)cc1)NC[C@@H](NC(=O)OC)C(C)(C)C)C(C)(C)C,-,-,MT-4,pNL4-3,4 nM
C/C(=N\Nc1nc(-c2ccc(Cl)cc2)cs1)c1ccc(-n2ccnc2)cc1,-,-,MT-4,IIIB,>92.25 µM
COC(=O)N[C@H](C(=O)N[C@@H](Cc1ccccc1)C[C@H](O)[C@H](Cc1ccc(-c2ccc(F)nc2)cc1)NC[C@@H](NC(=O)OC)C(C)(C)C)C(C)(C)C,-,-,MT-4,pNL4-3,3 nM
CCOC(=O)CNc1nc(Nc2ccc(Br)cc2)nc(Oc2cc(=O)oc3ccccc23)n1,-,RT-resistant RES056 (K103N + Y181C),-,RES056,>51.28 µg/mL
COC(=O)N[C@H](C(=O)N[C@@H](Cc1ccccc1)C[C@H](O)[C@H](Cc1ccc(-c2ccc(C#N)nc2)cc1)NC[C@@H](NC(=O)OC)C(C)(C)C)C(C)(C)C,-,-,MT-4,pNL4-3,6 nM
Cc1cc(C#N)cc(C)c1Oc1nc(NC2CCN(Cc3ccc(S(N)(=O)=O)cc3)CC2C(=O)O)nc2ccsc12,-,NNRTI-resistant (RT F227L V106A),MT-4,IIIB,2.53 µM
COc1c(-c2cc(C)n(-c3ccccc3)n2)c(O)c(S(=O)(=O)Oc2ccc([N+](=O)[O-])cc2)c2occc12,-,-,MT-4,IIIB,0.000014 µM
Cc1cn([C@H]2C[C@H](N=[N+]=[N-])[C@@H](CO)O2)c(=O)[nH]c1=O,-,K103N,MT-4,-,0.019 µM
CCOCn1c(Cc2cccc(F)c2)c(CC)c(=O)[nH]c1=O,-,K103N + Y181C,MT-4,A17,68 µM
COC(=O)N[C@H](C(=O)N[C@@H](Cc1ccccc1)C[C@H](O)[C@H](Cc1ccc(-c2ccnc(F)c2)cc1)NC[C@@H](NC(=O)OC)C(C)(C)C)C(C)(C)C,50% human serum,-,MT-4,pNL4-3,7 nM
Cc1cc(C)nc(NC(=S)NCCc2c(Cl)cccc2Cl)c1,-,-,MT-2,IIIB,0.07 µM
CC(=O)N1Cc2ccccc2-c2c(C)c(-c3ccc(C)cc3)c([C@H](OC(C)(C)C)C(=O)O)c(C)c21,-,-,MT-4,-,0.011 µM
N#Cc1ccc(-c2csc(N/N=C/c3ccc([N+](=O)[O-])cc3)n2)cc1,-,-,MT-4,IIIB,>10.55 µM
CCOC(=O)CNc1nc(Nc2ccccc2OC)nc(Oc2cc(=O)oc3ccccc23)n1,-,-,MT-4,IIIB,>72.3 µg/mL
CCCCCCCCCCCCCCCCNCC(O)C(O)C(OC1OC(CO)C(O)C(O)C1O)C(O)CO,-,-,CEM + CEM-SS,LAI,50 µM
N#Cc1ccc(-c2csc(N/N=C/c3ccco3)n2)cc1,-,-,MT-4,IIIB,>10.04 µM
Cc1cn([C@H]2C[C@H](N=[N+]=[N-])[C@@H](CO)O2)c(=O)[nH]c1=O,-,RES056,MT-4,IIIB,0.035 µM
CCOC(=O)CNc1nc(Nc2cccc(Cl)c2)nc(Oc2cc(=O)oc3ccccc23)n1,-,-,MT-4,IIIB,>56 µg/mL
Cc1ccnc2c1NC(=O)c1cccnc1N2C1CC1,-,-,MT-4,IIIB,>0.05 µM
Cc1cccc(NC(=S)NCCc2ccccc2F)n1,-,-,MT-2,IIIB,50 µM
Cc1cc(C#N)cc(C)c1Oc1nc(NC2CCC(NCc3ccc(O)cc3)CC2)nc2ccsc12,-,NNRTI-resistant (RT Y188L),MT-4,IIIB,>20.1 µM
O=[N+]([O-])c1ccc(-c2csc(N/N=C/c3ccccc3O)n2)cc1,-,-,MT-4,IIIB,>125 µM
CCOC(=O)c1c(C)n([C@H]2C[C@@H]2c2ccccc2)c2ccc(O)cc12,-,-,MT-4,NL4-3,5.91 µM
C=C(C)COCn1c(Cc2c(F)c(F)cc(F)c2F)c(CC)c(=O)[nH]c1=O,-,K103N + Y181C,MT-4,A17,>38 µM

8 of the rows above, restated:

| SMILES | setting | changes | cells | strain or isolate | result |
|---|---|---|---|---|---|
| CCOC(=O)c1c(CSc2ccccc2)n(C)c2cc(Br)c(O)c(CN(C)C)c12 | - | - | MT-4 | NL4-3 | 20.32 µM |
| C=CCOCn1c(Cc2cccc(F)c2)c(CC)c(=O)[nH]c1=O | - | - | MT-4 | EFV-resistant (K103R V179D P225H) | 60 µM |
| COC(=O)N[C@H](C(=O)N[C@@H](Cc1ccccc1)C[C@H](O)[C@H](Cc1ccc(-c2ccccc2)cc1)NC[C@@H](NC(=O)OC)C(C)(C)C)C(C)(C)C | - | - | MT-4 | pNL4-3 | 4 nM |
| COC(=O)N[C@H](C(=O)N[C@@H](Cc1ccccc1)C[C@H](O)[C@H](Cc1ccc(-c2ccnc(F)c2)cc1)NC[C@@H](NC(=O)OC)C(C)(C)C)C(C)(C)C | 50% human serum | - | MT-4 | pNL4-3 | 7 nM |
| N#Cc1ccc(-c2csc(N/N=C/c3ccco3)n2)cc1 | - | - | MT-4 | IIIB | >10.04 µM |
| COC(=O)N[C@H](C(=O)N[C@@H](Cc1ccccc1)C[C@H](O)[C@H](Cc1ccc(-c2cccnc2)cc1)NC[C@@H](NC(=O)OC)C(C)(C)C)C(C)(C)C | 50% human serum | - | MT-4 | pNL4-3 | 35 nM |
| CCOC(=O)c1c(C)n([C@H]2C[C@@H]2c2ccccc2)c2ccc(O)cc12 | - | - | MT-4 | NL4-3 | 5.91 µM |
| Cc1cn([C@H]2C[C@H](N=[N+]=[N-])[C@@H](CO)O2)c(=O)[nH]c1=O | - | K103N | MT-4 | - | 0.019 µM |